Measurements taken from the supplement of paper PMC9931576.
Human monoclonal antibodies against the spike receptor-binding domain (heavy:light variable regions). IC50 against pseudoviruses bearing the spike of naturally observed variants; lower = stronger; >10 µg/ml means not reached at the top dose. No active / inactive call. The stated detection limit is 0.0005 µg/ml; values near or below 0.001 µg/ml lie at the floor of the assay.

B1: BD56-1930 (protein)
chain 1: QVQLVQSGAEVKKPGSSVEVSCKASGGTFSRYAISWVRQAPGQGLEWMGRIIPMFGMANYAQKFQGRVTITADKSTSTAYMEMSSLRSEDTAVYYCATSPFYSDSSGYYLDNWGQGTLVTVSS
chain 2: DIQMTQSPSSLSASVGDRVTITCRASQDIHNYLAWYQQKPGKVPKLLIYATSTLQSGVPSRFSGSGSGTDFTLTISSLQPEDVATYYCQRYDSAPRTFGPGTKVDIK
B2: BD56-1949 (protein)
chain 1: QVQLVQSGAEVKKPGSSVKVSCKASGDTFSRYAISWVRQAPGQGLEWMGRLIPRFGMANYAQNFQGRVTMSADTSTSTAYMEMSSLTSEDTAVYYCATSPFFPDSSAYYLDYWGQGTLVTVSS
chain 2: DIQMTQSPSSLSASVGDRVTITCRASQGISNFLAWYQQKPGKVPKLLIYGASILQSGVPSRFSGSGSGTDFTLTISSLQPEDVATYYCQKYNSAPRTFGPGTKVDIK
B3: BD56-1945 (protein)
chain 1: QVQLVQSGAEMKKPGSSVKVSCKASGGTFDSQSISWVRQAPGQGLEWMGRLIPMFGVPNYAQRFQGRITITADKSTTTAYMELSRLRSEDTAVYYCARDHGYIHGYSDYWGQGTLVTVSS
chain 2: EIVLTQSPATLSLSPGERATLSCRASQGVSNYLAWYQQKLGQAPRLLIYDAFKRATGIPARFSGSGSGTDFTLTISSLEPEDFAVYYCQQRSNWPLTFGGGTKVEIK
B4: BD56-1950 (protein)
chain 1: QVQLVESGGGVVQPGRSLRLSCAASGFSFRTYPMHWVRQAPGKGLEWVAVISHDGTEKYYTDSLKGRFTISRDNSKNTLFLQMNSLRAEDTAVYYCAKDWVAGYCRGGRCNSYNGLDVWGQGTTVTVSS
chain 2: DFMLTQPHSVSESPGKTVTISCTRSGGTIVSNYVQWYQQRPGSAPATVIYEDDQRPSGVPDRFSGSIDSSSNSASLTISGLETEDEADYYCQSHDGSKMIFGGGTKLTVL
B5: BD56-1937 (protein)
chain 1: EVQLVESGGGLVQPGGSLRLSCEASGLIVSRNYMSWVRQAPGKGLEWVSVIYAGGSTFYADSVKGRFTISRNDSKNTMYLQLNSLRAEDTAVYFCARDQGEDVFDIWGQGTMVTVSS
chain 2: DIQLTQSPAFLSASVGDRVTITCRASQGISSYLAWYQQKPGKAPKLLIYAASTLQSGVPSRFSGSGSGTAFTLTISSLQPEDFATYYCQQLNSYPPLFGGGTKVEIK
B6: BD56-1935 (protein)
chain 1: QVQLQESGPGLVKPSETLSLTCTVSGGSVSSGSCYWSWIRQPPGKGLEWIGYIYYNGRTNYNPSLKSRVTISLDTSRNQFSLKVTSVTAADTAVYYCAREPIVVPAAIPPYGLDVWGQGTTVTVSS
chain 2: EIVLTQSPATLSLSPGERATLSCRASQSVNSYLAWYQQKPGQAPRLLIYDSSNRATGIPARFSGSGSGTDFTLTISSLEPEDFAVYYCLQRSNWPPLTFGGGTKVEIK
B7: BD56-1928 (protein)
chain 1: EVQLVESGGGLVQPGGSLRLSCAASGFTVTRTYMSWVRQAPGKGLEWVSVINSAGTTYYADSVKGRFIISRDNSKNTLYLQMNSLRAEDTAVYYCARDPAGFGEFGFDFWGQGTLVTVSS
chain 2: DIQLTQSPSSLSASVGDRVTITCRASQGIGSYLAWYQQKPGKAPKLLIYAASTLQSGVPSRFSGGGSGTDFTLTISSLQPEDFATYYCQQLNSYPPFTFGGGTKVEMK

Target: SARS-CoV-2 Omicron BA.1 spike pseudovirus
Assay: pseudovirus neutralization IC50; higher = weaker neutralization
Method: (§1)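 Single-round VSV luciferase pseudovirus mixed with antibody dilutions for 1 h and put on Huh-7 cells for about a day; IC50 from the dose curve.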

Binder	pseudovirus neutralization IC50 [µg/mL]
B1	0.192
B2	0.31
B3	> 10
B4	> 10
B5	0.0845
B6	0.124
B7	3.38

Target: SARS-CoV-2 Omicron BA.2 spike pseudovirus
Assay: as above
Method: as §1

Binder	pseudovirus neutralization IC50 [µg/mL]
B1	0.132
B2	0.167
B3	> 10
B4	> 10
B5	0.0995
B6	0.062
B7	3.11

Target: SARS-CoV-2 Omicron BA.2.75 spike pseudovirus
Assay: as above
Method: as §1

Binder	pseudovirus neutralization IC50 [µg/mL]
B1	0.157
B2	0.00994
B3	> 10
B4	> 10
B5	> 10
B6	0.0933
B7	> 10

Target: SARS-CoV-2 Omicron BA.5 spike pseudovirus
Assay: as above
Method: as §1

Binder	pseudovirus neutralization IC50 [µg/mL]
B1	> 10
B2	> 10
B3	> 10
B4	> 10
B5	> 10
B6	> 10
B7	2.61

Target: SARS-CoV-2 Omicron BQ.1.1 spike pseudovirus
Assay: as above
Method: as §1

Binder	pseudovirus neutralization IC50 [µg/mL]
B1	> 10
B2	> 10
B3	> 10
B4	> 10
B5	> 10
B6	> 10
B7	> 10

Target: SARS-CoV-2 Omicron XBB spike pseudovirus
Assay: as above
Method: as §1

Binder	pseudovirus neutralization IC50 [µg/mL]
B1	> 10
B2	> 10
B3	> 10
B4	> 10
B5	> 10
B6	0.248
B7	> 10

Target: SARS-CoV-2 early D614G spike pseudovirus
Assay: as above
Method: as §1

Binder	pseudovirus neutralization IC50 [µg/mL]
B1	0.00153
B2	0.00315
B3	0.00171
B4	> 10
B5	0.0238
B6	0.00212
B7	0.00901
